Results of unrelated studies side by side (data: NIAID ChemDB).

Shared fields: whole-cell or culture tests; agent: Candida albicans

Blank or dashed fields: not listed here. Rows are shuffled and stem from different studies. ECn: concentration that inhibits the pathogen or its effect by n%. A number after MIC or MFC names an inhibition level or a share of isolates.

smiles	strain or isolate	read by	read-out	value
CO[C@H]1C[C@@H]2CC[C@@H](C)[C@@](O)(O2)C(=O)C(=O)N2CCCC[C@H]2C(=O)O[C@H]([C@H](C)C[C@@H]2CC[C@@H](C(=O)ON(C)OC)[C@H](OC)C2)CC(=O)[C@H](C)/C=C(\C)[C@@H](O)[C@@H](OC)C(=O)[C@H](C)C[C@H](C)CCCC/C=C/1C	579A	-	MIC	>100 µg/mL
CCCCCCCC[N+](C)(C)COCCC(C)CCCC(C)C	ATCC 10231	-	MBC	1370 µM
CO[C@H]1C[C@@H]2CC[C@@H](C)[C@@](O)(O2)C(=O)C(=O)N2CCCC[C@H]2C(=O)O[C@H]([C@H](C)C[C@@H]2CC[C@@H](C(=O)ON3CCNCC3)[C@H](OC)C2)CC(=O)[C@H](C)/C=C(\C)[C@@H](O)[C@@H](OC)C(=O)[C@H](C)C[C@H](C)CCCC/C=C/1C	579A	-	MIC	>100 µg/mL
CCCCCCCCCCCC[N+](C)(C)COCCCCCCCC	ATCC 10231	-	MIC	128 µM
CCC(c1ccc(OC)cc1)C(c1ccc(OC)cc1)n1ccnc1	28 strains	-	MIC50	256 µg/mL
CCCCCCCCCCCC[N+](C)(C)COCCC	ATCC 10231	-	MIC	155 µM
CCCCCCCCOc1ccc(-c2ccc(-c3ccc(CN[C@H]4CCCNC(=O)C5C[C@H](N)CN5C(=O)C(C(C)O)NC(=O)C(CCc5ccc(O)cc5)NC(=O)C5C[C@@H](O)CN5C(=O)C(C(C)O)NC4=O)cc3)cc2)cc1	ATCC 62376	-	MIC	0.39 µg/mL
CCC(c1ccc(OC)cc1)C(c1ccc(OC)cc1)n1cnnc1	28 strains	-	MIC50	128 µg/mL
CCCCCCCCCOC[N+](C)(C)CCCCCCCC	ATCC 10231	-	MIC	28.6 µM
CCCCCCCCOc1ccc(N2CCN(c3ccc(C(=O)N[C@H]4CCCNC(=O)C5C[C@H](N)CN5C(=O)C(C(C)O)NC(=O)C(Cc5ccc(C=O)cc5)NC(=O)C5CCCN5C(=O)C(C(C)O)NC4=O)cc3)CC2)cc1	ATCC 10231	-	MIC	25 µg/mL
CCC(c1ccc(OC)cc1)C(O)c1ccc(OC)cc1	28 strains	-	MIC90	>256 µg/mL
O=C(Nc1nc2ccc(NC(=O)[C@@H]3CCC[C@H](NCc4ccc5ccccc5c4)C3)cc2s1)C1CCCC1	IFM 40009	-	MIC	0.78 µM
CCCCCCCCCCCC[N+](C)(C)COCCCCC	ATCC 10231	-	MBC	28.6 µM
COc1ccc(C(=O)Cc2ccc(Cl)cc2)cc1	28 strains	-	EC50	>256 µg/mL
COC1CC2CCC(C)C(O)(O2)C(=O)C(=O)N2CCCCC2C(=O)OC(C(C)CC2CCC(O)C(OC)C2)CC(=O)C(C)/C=C(\C)C(O)[C@@](OC)(N(O)C(=O)OCC(C)C)C(=O)C(C)CC(C)/C=C/C=C/C=C/1C	RBP1/RBP1	-	MIC	>100 µg/mL
CO[C@@H]1C[C@H](C[C@@H](C)[C@@H]2CC(=O)[C@H](C)/C=C(\C)[C@@H](O)[C@@H](OC)C(=O)[C@H](C)C[C@H](C)/C=C/C=C/C=C(\C)[C@@H](N(O)C(=O)N(C)C)C[C@@H]3CC[C@@H](C)[C@@](O)(O3)C(=O)C(=O)N3CCCC[C@H]3C(=O)O2)CC[C@H]1C(=O)ON(C)O	62376	-	MIC	100 µg/mL
CCCCCOc1ccc(-c2ccc(-c3ccc(C(=O)N[C@H]4CCCNC(=O)C5[C@@H](O)[C@@H](O)N5C(=O)C(C(C)O)NC(=O)C(CCc5ccc(O)cc5)NC(=O)C5C[C@@H](O)CN5C(=O)C(C(C)O)NC4=O)cc3)cc2)cc1	ATCC 10231	-	MIC	0.1 µg/mL
COc1ccc(C(C(Cc2ccc(Cl)cc2Cl)c2ccc(Cl)cc2)n2cncn2)cc1	28 strains	-	MIC50	256 µg/mL
CCCCCCCCCCCC[N+](C)(C)COCCCCCCC	ATCC 10231	-	MIC	13.2 µM
COc1ccc(CC(c2ccc(OC)cc2)n2ccnc2)cc1	28 strains	-	MIC90	32 µg/mL
CCCCCOc1ccc(-c2ccc(-c3ccc(C(=O)N[C@H]4CCCNC(=O)[C@@H]5C[C@H](N)CN5C(=O)[C@H](CCC(=O)O)NC(=O)C(CCc5ccc(O)cc5)NC(=O)[C@@H]5C[C@@H](O)CN5C(=O)[C@H]([C@@H](C)O)NC4=O)cc3)cc2)cc1	ATCC CCH442	-	MIC	0.2 µg/mL
CCCCCCCCOC[N+](C)(C)CCCCCCCC	ATCC 10231	-	MIC	298 µM
CO[C@H]1C[C@@H]2CC[C@@H](C)[C@@](O)(O2)C(=O)C(=O)N2CCCC[C@H]2C(=O)O[C@H]([C@H](C)C[C@@H]2CC[C@@H](C(=O)ON3CCCCC3)[C@H](OC)C2)CC(=O)[C@H](C)/C=C(\C)[C@@H](O)[C@@H](OC)C(=O)[C@H](C)C[C@H](C)CCCC/C=C/1C	10231	-	MIC	>100 µg/mL
CCCCCCCCCCCCCCCC(=O)NC(CCCCN)C(=O)NC(CCCCN)C(N)=O	4896	broth dilution	MIC	2 µg/mL
CCCCCCCCCCCC[N+](C)(C)COCC(C)CC	ATCC 10231	-	MIC	71.4 µM
O=C(CN1CCCCC1)N/N=C\C(=O)c1ccc(-c2ccccc2)cc1	-	-	MIC	>50 µg/mL
COC1CC2CCC(C)C(O)(O2)C(=O)C(=O)N2CCCCC2C(=O)OC(C(C)CC2CCC(O)C(OC)C2)CC(=O)C(C)/C=C(\C)[C@@](O)(c2ccc(C)s2)C(OC)C(=O)C(C)CC(C)/C=C/C=C/C=C/1C	RBP1/RBP1	-	MFC	>100 µg/mL
O=C(CN1CCCC1)N/N=C\C(=O)c1ccccc1	-	-	MIC	>50 µg/mL
CCCCCOc1ccc(-c2ccc(-c3ccc(C(=O)N[C@H]4CCCNC(=O)C5C[C@H](NC(=O)Nc6ccccc6)CN5C(=O)C(C(C)O)NC(=O)C(CCc5ccc(O)cc5)NC(=O)C5C[C@@H](O)CN5C(=O)C(C(C)O)NC4=O)cc3)cc2)cc1	ATCC 62376	-	MIC	6.25 µg/mL
O=C(/C=C/c1cc(O)ccc1O)c1ccccc1	SDAU3	-	MIC	100 µg/mL
O=C(CN1CCOCC1)N/N=C\C(=O)c1ccc(-c2ccccc2)cc1	-	-	MIC	>50 µg/mL
Cc1ccc(O)c(C(=O)/C=C/c2ccc(O)cc2O)c1	SDAU5	-	MIC	75 µg/mL
O=C(CN1CCCCC1)N/N=C\C(=O)c1ccccc1	-	-	MIC	>50 µg/mL

For reference, 3 entries again:

smiles | strain or isolate | read by | read-out | value
CCCCCCCCCCCC[N+](C)(C)COCCC | ATCC 10231 | - | MIC | 155 µM
CCCCCCCCCCCCCCCC(=O)NC(CCCCN)C(=O)NC(CCCCN)C(N)=O | 4896 | broth dilution | MIC | 2 µg/mL
CCC(c1ccc(OC)cc1)C(O)c1ccc(OC)cc1 | 28 strains | - | MIC90 | >256 µg/mL